Target: EGFP-RBDʹ (EGFP-His6-linker-receptor binding domain of CDC297 BoNT/A1) (C. botulinum, UniProt A2I2R4 871-1296)

B1: GST-tagged luminal domain of synaptic vesicle glycoprotein 2C (domain or fragment)
chain: DVIKPLQSDEYALLTRNVERDKYANFTINFTMENQIHTGMEYDNGRFIGVKFKSVTFKDSVFKSCTFEDVTSVNTYFKNCTFIDTVFDNTDFEPYKFIDSEFKNCSFFHNKTGC
Kd: 5.45 µM
koff: 0.0287 s⁻¹
kon: 5260 M⁻¹ s⁻¹

— paper PMC8943039, “Neuron-recognizable characteristics of peptides recombined using a neuronal binding domain of botulinum neurotoxin” (Scientific Reports, 2022)
